# According to the supplement of paper PMC9931576:
# Human monoclonal antibodies against the spike receptor-binding domain (heavy:light variable regions). IC50 against pseudoviruses bearing the spike of naturally observed variants; lower = stronger; >10 µg/ml means not reached at the top dose. No active / inactive call. The stated detection limit is 0.0005 µg/ml; values near or below 0.001 µg/ml lie at the floor of the assay.
# Assays:
# Experiment in all cases: pseudovirus neutralization IC50; higher = weaker neutralization
# [1] = target: SARS-CoV-2 Omicron BA.1 spike pseudovirus
# Method: (§1)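 Single-round VSV luciferase pseudovirus mixed with antibody dilutions for 1 h and put on Huh-7 cells for about a day; IC50 from the dose curve.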
# [2] = target: SARS-CoV-2 Omicron BA.2 spike pseudovirus
# Method: as §1
# [3] = target: SARS-CoV-2 Omicron BA.2.75 spike pseudovirus
# Method: as §1
# [4] = target: SARS-CoV-2 Omicron BA.5 spike pseudovirus
# Method: as §1
# [5] = target: SARS-CoV-2 Omicron BQ.1.1 spike pseudovirus
# Method: as §1
# [6] = target: SARS-CoV-2 Omicron XBB spike pseudovirus
# Method: as §1
# [7] = target: SARS-CoV-2 early D614G spike pseudovirus
# Method: as §1
Binder,pseudovirus neutralization IC50 [1] [µg/mL],pseudovirus neutralization IC50 [2] [µg/mL],pseudovirus neutralization IC50 [3] [µg/mL],pseudovirus neutralization IC50 [4] [µg/mL],pseudovirus neutralization IC50 [5] [µg/mL],pseudovirus neutralization IC50 [6] [µg/mL],pseudovirus neutralization IC50 [7] [µg/mL]
BD56-1831 (protein) chain 1: QVQLVQSGAEVKKPGASVKVSCKASGYTFTDYSMNWVRQAPGQGLEWMGWINPNSGGTNSAQRFQGRLTMTRDTSITTAYMELTRLRSDDTAVYYCVRESCSGTSCFDSWGQGTLVTVSS chain 2: SYVLTQPPSVSVAPGQTARITCAGNNIGSKSVHWYQQKSGQAPVLVVYDDSDRPSGIPERFSGSNSGNTATLTVSRVEAGDEADYYCQVWDGTDDHFYVFGTGTKVTVL,> 10,> 10,> 10,> 10,> 10,> 10,> 10
BD56-1782 (protein) chain 1: EVQLVQSGAEVKKPGSSVKVSCKASGGTFSSYSVSWVRQAPGQGPEWMGSVIPILGIANYAQKFQGRVTISADKSTSTAYMDLSSLRSEDTAVYYCATLGYYDSSGPLRTEYLQEWGQGTLVTVSS chain 2: QSVLTQPPSVSGAPGQRVTISCTGSNSNIGAGYDVHWYQQLPGAAPKILIYGNNNRPSGVPDRFSGSKSDTSASLAITGLQAEDEADYYCQSYDSSLSGSVFGGGTKLTVL,0.298,0.442,0.319,> 10,> 10,> 10,0.885
DH1041 (protein) chain 1: EVQLVESGGGLVQPGGSLRLSCAASGVTFSSYWMSWVRQAPGKGLEWVANIRQDGSEKYSVDSVKGRFTISRDNAKNSLYLQMNSLRAEDTAVYYCARARRADNSGYYGFHFDCWGQGTLVTVSS chain 2: QSVLTQPPSVSGAPGQRVTISCTGSSSNIGAGYDVHWYQQLPGTAPKLLIYGNNNRPSGVPDRFSDSKSGTSASLAITRLQAEDEADYYCQSYDSSLSGWVFGGGTKLTVL,> 10,> 10,> 10,> 10,> 10,> 10,0.0086
BD56-1822 (protein) chain 1: QMQLVESGGGVVQPGRSLRLSCAASAFTFSTYAMHWVRQAPGKGLEWVAVISDDGSSKFYADSVKGRFTISRDNSKNMLYLQLNSLRAEDTAVYYCARDGPVGVTHYFDYWGQGTLVTVSS chain 2: DIQLTQSPSSLSASVGDRVTITCRASQSISTYLHWYQQKPGQAPKLLIYAASSLQTGVPSRFSGRGSGTDFTLTISSLQPEDFATYYCQQSYSTLELTFGPGTRVDIK,> 10,> 10,> 10,> 10,> 10,> 10,> 10
BD56-1834 (protein) chain 1: QVQLVQSGAEVKEPGSSVKVSCKASGGTFSSYTISWVRQAPGQGLECMGRIIPTLGIADYAQKFQGRVTITADKSTSTAYMELSSLRSEDTAVYYCARVRSIVTINSWWFDPWGQGTLVTVSS chain 2: QSVLTQPPSVSGAPGQRVTISCTGSNSNIGAGYDVHWYQQLPGTAPKLLIYGNNNRPSGVPDRFSGSKSDTSASLAITGLQAEDEADYYCQSYDSSVSDSGVFGTGTKVTVL,0.0687,0.0608,0.0642,> 10,> 10,> 10,0.0549
BD56-1804 (protein) chain 1: EVQLVESGGGLVQPGGSLRLSCAASGFTFRSYDMHWVRQGAGKGLEWVSTIGTGGDTYYSDSVKGRFSISRENAKNSVYLQMSSLRVGDTAVYYCARVNYDSSGYKWHLDYWGQGTPVSVSS chain 2: DIQMTQSPSSLSASVGDRVTITCRASQSISRYLNWYQQKPGKGPNLLIYDASSLQRGVPSRFSGSGSGTDFTLTISSLQPEDFATYYCQQSYTNPLYTFGQGTKLEIK,> 10,> 10,> 10,> 10,> 10,> 10,2.72
BD56-1814 (protein) chain 1: QVQLQESGPGLVKPSETLSLTCTVSGGSISTYYWSWIRQPPGKGLEWIGYIHQSGGTYYNPSLKRRVTILADTSKNQFSLKLTSMTAADTAVYYCARVEYYAAGSPFDYWGQGTLVTVSS chain 2: DIQMTQSPSSLSASVGDRVTITCQASQDISNYLNWYQQKPGKAPKLLIYDASHVETGVPSRFSGSGSGTEFTFTISSLQPEDVATYYCQQYDDLPMYTFGQGTRLEIK,> 10,> 10,> 10,> 10,> 10,> 10,2.83
BD56-1809 (protein) chain 1: QVQLVQSGAEVKKPGSSVKVSCKAAGGTFGHYAIGWVRQAPGQGLEWMGRIIPMFDIPNYAQRFQGRLTIAADRSTSTAYMELSSLTSDDTAVYYCARDKSGGFFGSGTYYDPTIGADFWGQGTLVTVSS chain 2: QSVLTQPPSASGTPGQRVTISCSGSSSNIGSNTVNWYQQLPGTAPKLLIYSDDQRPSGVPDRFSGSKSGTSASLAISGLQSDDEADYYCAAWDDSLNGRLFGGGTKLTVL,0.0176,0.0105,0.00109,> 10,> 10,> 10,0.00505
BD56-1823 (protein) chain 1: EVQLVESGGGLVKPGGSLRLSCAASGFTFSRYTMNWVRQAPGKGLEWVSSIGSSSTHIYYPDSVKGRFTISRDNAKKSVYLQMNSLRVEDTAVYYCARDPGAFDWALGSLDYYGMNVWGQGTTVTVSS chain 2: QSVLTQPPSVSGAPGQRVTISCTGSSSNIGADYAVHWYRQLPGTAPKLLIYGNTNRPSGVPDRFSGSKSGTSASLAITGLQAEDEADYYCQSFDNSLSGVVFGGGTKLTVL,0.291,4.86,> 10,6.05,> 10,> 10,0.181
BD56-1821 (protein) chain 1: QVQLVQSGAEVKRPGSSVKVSCKASGGPFSNNVISWVRQAPGQGLEYMGRIIPIPGITNYAQRFQGRGTFTADKSTRTAYLELNNLRSEDTAVYYCATSEVVDADTSYDALDIWGEGTMVTVSS chain 2: QSALTQPRSVSGSPRQSVTISCTGTNSDVGRYNYVSWYQQHPGRAPKLLIYDVTKRPSGVPVRFSGSKSGNTASLTISGLQADDEADYYCSSYAGDSIFVIFGGGTKLTVL,0.0915,0.000416,0.0653,0.0392,> 10,> 10,0.000403
BD56-1820 (protein) chain 1: EVQLVESGGGLVQPGGSLRLSCAVSGFTVSSNYMSWVRQAPGKGLEWVSVIYPGGSAFYADSVKGRFTISRHNSKNTLYLQLNSLRAEDTAVYYCARDFYHDSSGYPRDFWGQGTLVTVSS chain 2: DIQMTQSPSALSASVGDRVTITCQASQDISNYLNWYQQKPGKAPKLLIYDASNLETGVPSRFSGSGSGTDFTFTISSLQPEDIATYYCHQYDNLPRTFGQGTKVEIK,0.0077,0.0044,0.0487,0.0174,> 10,> 10,0.022
BD56-1798 (protein) chain 1: QVQLQQWGAGLLKPSETLSLTCAVYGGSFSVYYWTWIRQTPGKGLEWIGEVNHSGSTNYNPSLKSRVTMSVDTSKKQFSLKLSSVTAADTAVYYCARGHWGYFDWSLGGQGTLVTVSS chain 2: DIQMTQSPSTLSASVGDRVTITCRASQSISDWLAWYQQKPGKAPKLLIFEASTLESGVPSTFSGSGSGTEFTLTISSLQPDDFAIYYCQQYSSYPYTFGQGTKLEIK,0.039,0.058,0.037,> 10,> 10,> 10,0.045
